Source: PubChem BioAssay AID1259414 (Drosophila RNAi Screening Center, 2018)

- Purpose: 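Host factors increasing or decreasing Wolbachia levels in cultured fly cells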 (primary screen)
- Cells: Drosophila JW18 cells infected with Wolbachia
- Reagents: long dsRNA against Drosophila genes, 0.25 µg dsRNA per well of a 384-well plate
- Time to read-out: 5 days
- Challenge: cells persistently infected with Wolbachia before knock-down; no added drug
- Read-out: 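Imaged fluorescence in situ signal for Wolbachia 23S rRNA per DAPI-counted host cell, given as a robust z-score within each plate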
- Scale: Wolbachia per cell robust z: higher = more Wolbachia per host cell than the plate typical
- Call rule: 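Active if absolute robust z reaches 1.5 in two or more of three replicates, leaving out multi- or no-target dsRNAs, genes unexpressed in JW18 and A1 wells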
The screen tested about 24,000 reagents; this is an unselected part of those that have a named target and a result. Of all reagents, about 1,210 (5%) are marked active. 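Inactive calls also include excluded dsRNAs with several or no targets, genes unexpressed in JW18, and well A1, regardless of score.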 Entries without a mark were called inactive. A plus sign joins genes that one reagent is predicted to hit.

DptB [DRSC06001]: Wolbachia per cell robust z, rep 1 = 0.682; Wolbachia per cell robust z, rep 2 = 0.732; Wolbachia per cell robust z, rep 3 = 0.717
Cortactin [DRSC16612]: Wolbachia per cell robust z, rep 1 = -0.259; Wolbachia per cell robust z, rep 2 = -1.12; Wolbachia per cell robust z, rep 3 = -1.31
Cortactin [DRSC28012]: Wolbachia per cell robust z, rep 1 = -0.177; Wolbachia per cell robust z, rep 2 = 0.383; Wolbachia per cell robust z, rep 3 = -0.791
Ir76b [DRSC10831]: Wolbachia per cell robust z, rep 1 = -0.967; Wolbachia per cell robust z, rep 2 = 0.0898; Wolbachia per cell robust z, rep 3 = 0.425
CG18088 [DRSC02654]: Wolbachia per cell robust z, rep 1 = 1.42; Wolbachia per cell robust z, rep 2 = -0.147; Wolbachia per cell robust z, rep 3 = 1.28
Nplp3 [DRSC25046]: Wolbachia per cell robust z, rep 1 = -0.185; Wolbachia per cell robust z, rep 2 = -0.669; Wolbachia per cell robust z, rep 3 = -0.692
Ctr1B + Poxm [DRSC16245]: Wolbachia per cell robust z, rep 1 = -1.48; Wolbachia per cell robust z, rep 2 = -7.1; Wolbachia per cell robust z, rep 3 = -1.18
Pkn [DRSC06810]: Wolbachia per cell robust z, rep 1 = -1.06; Wolbachia per cell robust z, rep 2 = 0.06; Wolbachia per cell robust z, rep 3 = 0.0693
Pkn [DRSC25936]: Wolbachia per cell robust z, rep 1 = 1.07; Wolbachia per cell robust z, rep 2 = 1.5; Wolbachia per cell robust z, rep 3 = 0.277
MED1 [DRSC11808]: Wolbachia per cell robust z, rep 1 = -1.72; Wolbachia per cell robust z, rep 2 = -0.0499; Wolbachia per cell robust z, rep 3 = 0.195
beat-Ib [DRSC03490]: Wolbachia per cell robust z, rep 1 = 0.0435; Wolbachia per cell robust z, rep 2 = -0.551; Wolbachia per cell robust z, rep 3 = -0.499
CG11155 [DRSC17205]: Wolbachia per cell robust z, rep 1 = -5.98; Wolbachia per cell robust z, rep 2 = -0.112; Wolbachia per cell robust z, rep 3 = -0.67
CG11155 [DRSC29324]: Wolbachia per cell robust z, rep 1 = -7.15 (active); Wolbachia per cell robust z, rep 2 = -2.15; Wolbachia per cell robust z, rep 3 = -6.36
